Test results as given in WO2022250107A1, “Human neutralizing antibody against wild-type strain and mutant strain of sars-cov-2, and antigen-binding fragment thereof” (dated 2022).

Target: SARS-CoV-2 S protein trimer (ACROBiosystems), wild type (SARS-CoV-2, UniProt P0DTC2 16-1213)

B1: EV053272 (antibody, V domains shown)
VH: QVQLVQSGAEVKKPGSSVKVSCKASGGTFSSYAISWVRQAPGQGLKWMGGIIPIFGTAKYAQKFQGRVTITADESTSTAYMELSSLRSEDTAVYYCASGRPVTIGVSSTTGVFDYWGQGTLVTVSS
VL: DIVMTQSPDSLAVSLGERATINCKSRQSVLYSSNNKNYLAWYQQKPGQPPKLLIYWASTRESGVPDRFSGSGSGTDFTLTISSLQAEDVAVYYCQQYYSSPITFGQGTRLEIKR
  EC50: 0.013 µg/mL
